Source: paper PMC7387792
Construct, isoform or probe ends are uncertain for at least one entry. For part of these data: At least one verdict was read from the data and is not stated in words by the source. For part of these data: Protein sequences can lack the tags named with them.

Columns and labels:
CRP [1] = test: EMSA; conditions: 1 mM cAMP, Lrp/H-NS/HlyU: 50 mM Tris-Cl pH 8.0, 20 mM KCl, 100 ug BSA, 1 mM DTT, 10% glycerol, 0.1 ug poly(dI-dC), 25 C, 0.5 h, CRP: 10 mM Tris-Cl pH 7.9, 50 mM NaCl, recombinant protein, protein details: His6 (pRSET A), probe letters rebuilt from the primers and the genome
[2] = system: T1, Lrp (Vibrio vulnificus MO6-24/O); test: DNase I footprinting; conditions: phased hypersensitivity, Lrp/H-NS/HlyU: 50 mM Tris-Cl pH 8.0, 20 mM KCl, 100 ug BSA, 1 mM DTT, 10% glycerol, 0.1 ug poly(dI-dC), 25 C, 0.5 h, CRP: 10 mM Tris-Cl pH 7.9, 50 mM NaCl, recombinant protein, residues 1-164, protein details: His6 (pET-28a(+)), probe letters rebuilt from the primers and the genome
T1 sequence (looked up): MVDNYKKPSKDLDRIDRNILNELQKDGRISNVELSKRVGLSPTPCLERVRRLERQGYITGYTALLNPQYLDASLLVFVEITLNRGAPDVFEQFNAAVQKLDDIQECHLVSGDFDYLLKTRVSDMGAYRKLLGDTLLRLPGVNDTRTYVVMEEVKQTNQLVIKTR

CRP [3] = test: DNase I footprinting; conditions: 1 mM cAMP, Lrp/H-NS/HlyU: 50 mM Tris-Cl pH 8.0, 20 mM KCl, 100 ug BSA, 1 mM DTT, 10% glycerol, 0.1 ug poly(dI-dC), 25 C, 0.5 h, CRP: 10 mM Tris-Cl pH 7.9, 50 mM NaCl, recombinant protein, protein details: His6 (pRSET A), probe letters rebuilt from the primers and the genome
[4] = system: T1, Lrp (Vibrio vulnificus MO6-24/O); test: EMSA; conditions: Lrp/H-NS/HlyU: 50 mM Tris-Cl pH 8.0, 20 mM KCl, 100 ug BSA, 1 mM DTT, 10% glycerol, 0.1 ug poly(dI-dC), 25 C, 0.5 h, CRP: 10 mM Tris-Cl pH 7.9, 50 mM NaCl, recombinant protein, residues 1-164, protein details: His6 (pET-28a(+)), probe letters rebuilt from the primers and the genome

Measured: binding result

AATGAGCTCTGAAAAACCGATGCCTGCACCGGCATTAGTTTCAACAAAAACTTGGTGACCATGTGAGATAAGCTCTCTCACACTGGCTGGGATCATACCAACACGGTATTCGTGGTTCTTGATTTCCTTTGGAACGCCAATAATCATCCTGACTCCTCGTTTTATTCTGGTTGTATTGACTATGTGTAGGGTGTAATGTCGAATTTGTGCCTAGTATAGATGTGATGTGGCAAAATTTGATACTGAATATTAAAAAGTTGTAGTATATTTTTTTGCAAGGAAGTAATAAGGTGGAATAAAAAATGGTAGATAACTACAAAAAGCCGTCCAAGGATCTAGACCGTATCGATCGCAATATTTTGAATGAATTGCAGAAAGATGGTCGAATTTCAAACGTTGAACTCTCTAAGCGCGTGGGGCTTTCTCCAACTAGTAAA (double strand) [lrp upstream region]
binds: CRP [1]; one retarded band, self-competition, label: 32P on reverse primer

TTTCAGCCATTACGCCATTCGCCATATTTTTTTGATCCTGACCTACGAAATAAAGAGAAAAAACACCTTTATTGTAGTTAACACTAGATACTGTTTGAACAAACTTCTCAGTCATAAATTTCCCCTACTTATTTTATATAGATAAGACGAAAATCGTTCCTTTTAAAAGGAATCACTCTCCGCCTGCAAGCTCAATTAAAAGGCAAAATATAAGAATTCAGCCATAAATAATTATTGTAATGTTTATTTTGTGTCGAAATATTACATCGTAAAACAGTGGTCATCAATAGACTTAAATCGATTATATTAGAGCAATTATTCTATTTTTATCGGCCATTATTCACTCAATTCCATATTCATGTAACAATCACCTTGATTACCTATTAACGTGATATGCATCATTCATTTGAATCAAATCTGTGCAATAAACACACAATGAAGACCAATAAACG (double strand) [PrtxA probe 2]
binds: [2]; LRPB3 -63/-10 protected | CRP [3]; CRPB2 -145/-127 protected, CRPB3 -118/-92 at higher CRP | [4]; 100 nM Lrp, 5 mM L-histidine (no effect) | [4]; 100 nM Lrp, 5 mM L-tryptophan (no effect) | [4]; full retardation at 180 nM Lrp, self-competition | CRP [1]; two retarded bands, self-competition

TTTCAGCCATTACGCCATTCGCCATATTTTTTTGATCCTGACCTACGAAATAAAGAGAAAAAACACCTTTATTGTAGTTAACACTAGATACTGTTTGAACAAACTTCTCAGTCATAAATTTCCCCTACTTATTTTATATAGATAAGACGAAAATCGTTCCTTTTAAAAGGAATCACTCTCCGCCTGCAAGCTCAATTAAAAGGCAAAATATAAGAATTCAGCCATAAATAATTATTGTAATGTTTATTTTGTGTCGAAATATTACATCGTAAAACAGTGGTCATCAATAGACTTAAATCGATTATATTAGAGCAATTATTCTATTTTTATCGGCCATTATTCACTCAATTCCATCTTCATGGACGTAGGCCCTTGATTACCTATTAACGTGATATGCATCATTCATTTGAATCAAATCTGTGCAATAAACACACAATGAAGACCAATAAACG (double strand) [probe 2 mtCRPB3]
binds: CRP [1]; not significantly altered vs wild type, label: 32P

CACACAATGAAGACCAATAAACGAGCAAAACAGTCCGCAATTGATGATTGATCGTGTTAACAAGCGGTGATAGGATTCCGCCCCTTCAAAAACGCTGCAATAAACATCGGCTAAGTAATTTAATTATGTCCAACAATGAAGGGTTGACGCTGATATGTATTCACTTTTATTTAAGTATCATCAGCGGTAATAGAGAACAATTTAAAGAAAATGCTAATTTAACAAAAACTAATAATTACAAAGAAGAACTCGAAAAAATACAAAAAGCAAACAAAGTAAGAATAACCACAAAACATTCACAATTTAAAAACATAGAGAAAATAAAAACACCCGCCATTTTATTTGATTCACAAGGTGCACCATTTATTCTAGCAAAGGCTAATAAAGATAAATGTTTAATACAAAGACCTAATAAAGAAAGTCCAGAAGTGGTCTCTTATCACGAACTTAAC (double strand) [PrtxA probe 1]
binds: [2]; LRPB1 -453/-387 and LRPB2 -298/-219 protected | CRP [3]; CRPB1 -336/-297 protected | [4]; 400 nM Lrp, 5 mM L-histidine (no effect) | [4]; 400 nM Lrp, 5 mM L-tryptophan (no effect) | [4]; full retardation at 720 nM Lrp, self-competition | CRP [1]; one retarded band, self-competition

AGACTAGTTCATGTGTTGGTCCTCTAGCTACAACTCACATGTCCCAACGGTTGTTGCAGATAGTTGTGTTAAACAATTTTATAATTTAGGTTTATATTTTTGTAGATAGTAATCTATTTGGGGTATTCAAGGGAACGGTTTCATTCAAACAATTGGCTAAAATCTGCGTCACATACATTCTTTACTGCGGGATGTTGAATCATACGCTCAGCAAAGATCACGTAATACTCTTCTTTGAGATCGTCAACATGGCCAATGAGTTGTAAAGTCAGATCTTCTTCGATTTCTGAGATATAGACGGTCGGGGCAAGGAAAATGACATCATCATGGTAGCGAGCAAAGGCTTTCATTAGGGCCACATCATCAAATTCCCCTAAGACATCAGGTTGAATCCCTTGGCGATCAAACCACTGTAAAACCTTACGCCCCATCGCTGTTCGGCTCCCAGGAATCAACAGTTTTTTCTGCTCCAAAATTGCGGGAAATTCAGCATTATCTATTTTGGTGGAAGAGAAGAAACTCATGCTCGACTCACCCAGTTTCTTACTATATAGGCCGGGACTTTGTGTCGAGTCGAGCTCTTG (double strand) [hlyU upstream region]
binds: CRP [1]; self-competition, label: 32P on reverse primer
